Anti-infective test results gathered from many reports (values: NIAID ChemDB through PubChem).

Common to all: growth or infection tests; organism: HIV-1; cell line: MT-2; measure: EC50

ECn is the concentration giving n% inhibition of infection, replication or growth. An empty or dashed field is not shown. Rows are shuffled and stem from different studies.

smiles	strain	mutations	read by	result
O=C1N(Cc2ccc3ccccc3c2)[C@H](Cc2ccccc2)[C@H](O)[C@@H](O)[C@@H](Cc2ccccc2)N1C1CCCC1	RF	-	hybridisation	<0.66 µM
CC(C)C1=C2[C@H]3CC[C@@H]4[C@@]5(C)CC[C@H](OC(=O)[C@H]6C[C@@H](C(=O)O)C6(C)C)C(C)(C)[C@@H]5CC[C@@]4(C)[C@]3(C)CC[C@@]2(c2nnc(-c3ccc(Cl)cc3)o2)CC1=O	92HT599	-	p24 / ELISA	<0.01 µM
O=C1N(c2ccccc2)c2ccccc2C1(Cc1ncc[nH]1)Cc1ncc[nH]1	IIIB	-	cytopathic effect / XTT	4.1 µM
CC(C)C1=C2[C@H]3CC[C@@H]4[C@@]5(C)CC[C@H](OC(=O)[C@H]6C[C@@H](C(=O)O)C6(C)C)C(C)(C)[C@@H]5CC[C@@]4(C)[C@]3(C)CC[C@@]2(c2ncc(-c3ccc(Cl)cc3)[nH]2)CC1=O	92HT599	-	p24 / ELISA	<0.01 µM
CN1CC=C(CC2(CC3=CCN(C)CC3)C(=O)N3c4ccccc4CCc4cccc2c43)CC1	RF	-	plaque count	5 µM
Nc1ccn([C@H]2CC[C@@H](CO)O2)c(=O)n1	IIIB	-	cytopathic effect / MTT	~0.2 µM
CN1CCC(CC2(CC3CCN(C)CC3)C(=O)N(c3ccccc3)c3ccccc32)CC1	RF	-	plaque count	<2 µM
Cc1cn([C@H]2C[C@H](N=[N+]=[N-])[C@@H](CO)O2)c(=O)[nH]c1=O	P119S(RT-P119S)	RT-P119S	p24	0.012 µM
Cc1cc(C#N)cc(C)c1Oc1cc(Nc2ccc(C#N)cc2)c(N)cc1[N+](=O)[O-]	RF	-	-	18.9 µM
O=C1N(c2ccccc2)c2ccccc2C1(Cc1nccn1Cc1ccccc1)Cc1nccn1Cc1ccccc1	RF	-	plaque count	<4 µM
CC(C)(C)NC(=O)[C@@H]1C[C@@H]2CCCC[C@@H]2CN1C[C@@H](O)[C@H](Cc1ccccc1)NC(=O)[C@H](CC(N)=O)NC(=O)c1ccc2ccccc2n1	HII2-1	-	RT activity	0.02 µM
CC(C)CN(C[C@@H](O)[C@H](Cc1ccccc1)NC(=O)O[C@H]1CCOC1)S(=O)(=O)c1ccc(N)cc1	IIIB	K112M K113E V128I	p24 / ELISA	0.0473 µM
C[C@H](Cn1cnc2c(N)ncnc21)OCP(=O)(O)O	M184V (3TC-resistant RT M184V)	RT-M184V	p24	1.5 µM
Cc1cn([C@H]2C[C@H](N=[N+]=[N-])[C@@H](CO)O2)c(=O)[nH]c1=O	IIIB	8374-P62 GS-8374-resistant	ATP	0.312 µM
Nc1ncnc2c1ncn2CCOCP(=O)(O)O	RT A62V/V75I/F77L/F116Y/Q151M	RT-A62V V75I F77L F116Y Q151M	p24	1.4 µM
CCCc1cc(=O)oc2c3c(c4c(c12)OC(C)(C)C=C4)O[C@@H](C)[C@H](C)[C@H]3O	H112-2	-	cytopathic effect / MTT	>2.5 µM
Cc1cn([C@H]2C[C@H](N=[N+]=[N-])[C@@H](CO)O2)c(=O)[nH]c1=O	LAI	-	cytopathic effect / MTT	0.9 µM
CO[P@](=O)(c1cc(C)cc(/C=C/C#N)c1)c1c(C(N)=O)[nH]c2ccc(Cl)cc12	BH10	-	-	0.0011 µM
O=C1N(Cc2cccnc2)[C@H](Cc2ccccc2)[C@H](O)[C@@H](O)[C@@H](Cc2ccccc2)N1Cc1ccc2ccccc2c1	RF	-	hybridisation	<0.72 µM
CC(C)CN(C[C@@H](O)[C@H](Cc1ccccc1)NC(=O)[C@H](CC(N)=O)NC(=O)c1ccc2ccccc2n1)C(=O)NC(C)(C)C	RF	-	p24	0.01 µM
O=c1[nH]cnc2c1ncn2[C@H]1CC[C@@H](CO)O1	-	RT-delta67 K103N	p24	1.04 µM
O=C(O)P(=O)(O)O	LAI viral clone (RT-Q161L H208Y)	RT-Q161L H208Y	cytopathic effect / MTT	213 µM
Nc1ncnc2c1ncn2[C@@H]1O[C@H](CO)C[C@@H]1F	RT P119S V179D L214F	RT-P119S V179D L214F	p24	20 µM
CC(C)C1=C2[C@H]3CC[C@@H]4[C@@]5(C)CC[C@H](OC(=O)[C@H]6C[C@@H](C(=O)O)C6(C)C)C(C)(C)[C@@H]5CC[C@@]4(C)[C@]3(C)CC[C@@]2(c2ncc(-c3ccccc3)[nH]2)CC1=O	92HT599	-	p24 / ELISA	<0.01 µM
O=C1N(Cc2ccccn2)[C@H](Cc2ccccc2)[C@H](O)[C@@H](O)[C@@H](Cc2ccccc2)N1Cc1ccccn1	RF	-	hybridisation	<49 µM
CN1CC=C(CC2(CC3=CCN(C)CC3)c3ccccc3-c3ccccc32)CC1	IIIB	-	cytopathic effect / XTT	13 µM
Cc1cn([C@H]2C[C@H](N=[N+]=[N-])[C@@H](CO)O2)c(=O)[nH]c1=O	NL4-3	PR-A71T V82A	p24	0.002 µM
CC(C)=CCOc1cc(Nc2ncnc(Cl)n2)ccc1Cl	IIIB	-	cytopathic effect / MTT	>45 µM
C#CCN1C(=O)N(CC#C)[C@H](Cc2ccccc2)[C@H](O)[C@@H](O)[C@H]1Cc1ccccc1	RF	-	hybridisation	<42 µM
Nc1ccn([C@H]2CC[C@@H](CO)O2)c(=O)n1	RT P119S L214F	RT-P119S L214F	p24	1 µM
CCN(c1nc(F)ccc1NC(C)(C)C)C1CCN(C(=O)c2cc3cc(NC(=O)N4CCN(C)CC4)ccc3[nH]2)CC1	IIIB	8374-P62 GS-8374-resistant	ATP	0.019 µM
O=C1N(Cc2ccc3ccccc3c2)[C@H](Cc2ccccc2)[C@H](O)[C@@H](O)[C@@H](Cc2ccccc2)N1CC1CC1	RF	-	hybridisation	<1.3 µM
Nc1ncnc2c1ncn2CCOCP(=O)(O)O	HXB2D	-	XTT	10 ± 1.6 µM
O=C1N(c2ccccc2)c2ccccc2C1(CCc1cccnc1)CCc1cccnc1	IIIB	-	cytopathic effect / XTT	2 µM
Cc1nc(C)c([C@H](OC(C)(C)C)C(=O)O)c(N2CCC(C)(C)CC2)c1-c1ccc(OCC2CCC(C)CC2)cc1	NL4-3	-	luminescence	≤0.1 µM

The last 4 rows once more:

O=C1N(Cc2ccc3ccccc3c2)[C@H](Cc2ccccc2)[C@H](O)[C@@H](O)[C@@H](Cc2ccccc2)N1CC1CC1 ; strain: RF ; read by: hybridisation ; result: <1.3 µM
Nc1ncnc2c1ncn2CCOCP(=O)(O)O ; strain: HXB2D ; read by: XTT ; result: 10 ± 1.6 µM
O=C1N(c2ccccc2)c2ccccc2C1(CCc1cccnc1)CCc1cccnc1 ; strain: IIIB ; read by: cytopathic effect / XTT ; result: 2 µM
Cc1nc(C)c([C@H](OC(C)(C)C)C(=O)O)c(N2CCC(C)(C)CC2)c1-c1ccc(OCC2CCC(C)CC2)cc1 ; strain: NL4-3 ; read by: luminescence ; result: ≤0.1 µM